According to ChEMBL document CHEMBL2021912, “Synthesis, cytotoxicity and apoptosis of cyclotriphosphazene compounds as anti-cancer agents” (Eur J Med Chem, 2012):

How the values were obtained:
Escherichia coli = assay: Antibacterial activity against Escherichia coli ATCC 35218 after 18 to 24 hrs by broth microdilution method
Pseudomonas aeruginosa = assay: Antibacterial activity against Pseudomonas aeruginosa ATCC 27853 after 18 to 24 hrs by broth microdilution method
Staphylococcus aureus = assay: Antibacterial activity against Staphylococcus aureus ATCC 25923 after 18 to 24 hrs by broth microdilution method
Candida albicans = assay: Antifungal activity against Candida albicans ATCC 10231 after 48 hrs by broth microdilution method

Measured: ID50

ClP1(Cl)=NP(Cl)(Cl)=NP(Cl)(Cl)=N1
> 250 µg/mL: all assays above
